Anti-infective test results gathered from many reports (values: NIAID ChemDB through PubChem).

Common to all: tests in culture; organism: Candida albicans; read-out: MIC90

A number after MIC or MFC names an inhibition level or a share of isolates.

COc1ccc(C(c2nccc3ccccc23)n2ccnc2)cc1.O=[N+]([O-])O ; strain or isolate: 44 strains ; value: >256 µg/mL
CC(C)C(N)CCC(C)C1CCC2C3CC=C4C[C@@H](O)CCC4(C)C3CCC12C ; strain or isolate: A13803 ; value: 0.78 µg/mL
CC[C@@H]([C@H](C)O)n1ncn(-c2ccc(N3CCN(c4ccc(OC[C@@H]5CO[C@@](Cn6cncn6)(c6ccc(F)cc6F)C5)cc4)CC3)cc2)c1=O ; strain or isolate: 19 strains (fluconazole-susceptible) ; value: 0.25 µg/mL
Clc1ccc(COc2ccc(C(c3cccc4ccccc34)n3ccnc3)cc2)cc1.O=[N+]([O-])O ; strain or isolate: 17 strains ; value: ≥256 µg/mL
C[C@H]1[C@H](O)[C@@H](C)/C=C/C=C/C=C/C=C/C=C/C=C/C=C/[C@H](O[C@@H]2O[C@H](C)[C@@H](O)[C@H](N)[C@@H]2O)C[C@@H]2O[C@](O)(C[C@@H](O)C[C@@H](O)CC[C@H](O)[C@@H](O)C[C@@H](O)CC(=O)O[C@H]1C)C[C@H](O)[C@H]2C(=O)O ; strain or isolate: 40 isolates azole-susceptible ; value: 0.2 µg/mL
CCC(C)CC(C)CCCCCCCCC(=O)N[C@H]1C[C@@H](O)[C@H](NCCN)NC(=O)[C@@H]2[C@@H](O)CCN2C(=O)[C@H]([C@H](O)CCN)NC(=O)[C@H]([C@H](O)[C@@H](O)c2ccc(O)cc2)NC(=O)[C@@H]2C[C@@H](O)CN2C(=O)[C@H]([C@@H](C)O)NC1=O ; strain or isolate: 10 strains (fluconazole-resistant) ; value: 1 µg/mL
Fc1ccc(COc2ccc(C(c3nccc4ccccc34)n3ccnc3)cc2)c(F)c1 ; strain or isolate: 17 strains ; value: ≥256 µg/mL
CCC(C)n1ncn(-c2ccc(N3CCN(c4ccc(OC[C@H]5CO[C@](Cn6cncn6)(c6ccc(Cl)cc6Cl)O5)cc4)CC3)cc2)c1=O ; strain or isolate: 40 isolates azole-susceptible ; value: 0.1 µg/mL
CC(=O)OCC1C=C(c2ccc(Br)cc2)C(=O)O1 ; strain or isolate: 25 isolates ; value: 1 µg/mL
CC(C)C(CCC(C)C1CC[C@@]2(C)C3=C(CCC12C)C1(C)CC[C@H](O)C(C)(C)C1CC3)Sc1ccccc1 ; strain or isolate: A.10231 ; value: 100 µg/mL
CC(=O)OCC1C=C(c2cccc(Cl)c2)C(=O)O1 ; strain or isolate: 16 isolates fluconazole-susceptible ; value: 2 µg/mL
Clc1ccccc1COc1ccc(C(c2ccc3ccccc3c2)n2ccnc2)cc1.O=[N+]([O-])O ; strain or isolate: 17 strains ; value: ≥256 µg/mL
CC(C)C(CCC(C)C1CC[C@@]2(C)C3=C(CCC12C)C1(C)CC[C@H](O)C(C)(C)C1CC3)NCc1ccccc1 ; strain or isolate: A.10231 ; value: 100 µg/mL
Fc1ccc(COc2ccc(C(c3ccc(-c4ccccc4)cc3)n3ccnc3)cc2)c(F)c1.O=[N+]([O-])O ; strain or isolate: 16 strains ; value: ≥256 µg/mL
CC(C)C(CCC(C)C1CCC2C3CC=C4C[C@@H](O)CCC4(C)C3CCC12C)NS(=O)(=O)O ; strain or isolate: A.10231 ; value: 3.13 µg/mL
Fc1ccccc1COc1ccc(C(c2cccc3ccccc23)n2ccnc2)cc1.O=[N+]([O-])O ; strain or isolate: 17 strains ; value: ≥256 µg/mL
OC(Cn1cncn1)(Cn1cncn1)c1ccc(F)cc1F ; strain or isolate: Isolate HR-Micro ; conditions: 24 h ; value: 12.5 µg/mL
CC(C)C(N)CCC(C)C1CC[C@@]2(C)C3=C(CCC12C)C1(C)CC[C@H](O)C(C)(C)C1CC3 ; strain or isolate: A11651 ; value: 100 µg/mL

For reference, 2 entries again:

smiles | strain or isolate | conditions | value
CCC(C)CC(C)CCCCCCCCC(=O)N[C@H]1C[C@@H](O)[C@H](NCCN)NC(=O)[C@@H]2[C@@H](O)CCN2C(=O)[C@H]([C@H](O)CCN)NC(=O)[C@H]([C@H](O)[C@@H](O)c2ccc(O)cc2)NC(=O)[C@@H]2C[C@@H](O)CN2C(=O)[C@H]([C@@H](C)O)NC1=O | 10 strains (fluconazole-resistant) |  | 1 µg/mL
Clc1ccc(COc2ccc(C(c3cccc4ccccc34)n3ccnc3)cc2)cc1.O=[N+]([O-])O | 17 strains |  | ≥256 µg/mL

Lines come from different laboratories, so protocols vary. Blank or dashed fields: not listed here.